The target in test [1] is T1, ricin A chain (RTA) (Ricinus communis, UniProt P02879).
Test [2] deals with T1, ricin A chain (RTA). Particulars: cited from earlier work.

Where two headings read alike, the source gives them in different places.

The source of these data is patent US6562969B1, “Ricin inhibitors and methods for use thereof” (dated 2003).

`Cc1cc2c(=O)[nH]c(N)nc2[nH]1`: the IC50 in test [1] stood at 250 µM.

For formycin monophosphate, in test [2], the “inhibition of RTA, background statement” value was “not an effective inhibitor”.

As for `Nc1nc2ncc(CNc3ccc(C(=O)O)cc3)nc2c(=O)[nH]1`, the IC50 in test [2] was 600 µM. In test [1], this compound had a Ki of 600 µM.

The compound `Nc1nc2[nH]cc(CNc3ccc(C(=O)O)cc3)c2c(=O)[nH]1` had an IC50 in test [1] of 300 µM.

Compound `Nc1nc2ncc(C(O)C(O)CO)nc2c(=O)[nH]1` (stereo not shown) returned a Ki in test [1] of more than 2000 µM.

On to `Nc1nc2[nH]ccc2c(=O)[nH]1`, for which the IC50 in test [1] was 1500 µM.

A word on the IC50: it is the concentration at which inhibition is half-maximal. What is called Ki is a measure of affinity in units of concentration, obtained from inhibition or displacement.
